Anti-infective test results gathered from many reports (values: NIAID ChemDB through PubChem).

All rows: tests on isolated targets

Fold resistance: result on the changed form divided by that on wild type.

compound | target | endpoint | tested at | strain or isolate | conditions | changes | agent | method | value
Cc1cn([C@H]2CC[C@@H](COP(=O)(O)OP(=O)(O)OP(=O)(O)O)O2)c(=O)[nH]c1=O | Reverse transcriptase | fold resistance |  |  |  | RT-I135A | HIV-1 | nucleotide incorporation / radiometric | 0.8
NC[C@@H]1O[C@H](O[C@H]2[C@@H](O)[C@H](O[C@@H]3[C@@H](O)[C@H](N)C[C@H](N)[C@H]3O[C@H]3O[C@H](CO)[C@@H](O)[C@H](O)[C@H]3N)O[C@@H]2CO)[C@H](N)[C@@H](O)[C@@H]1O | Rev:RRE | inhibition | 100 µM |  |  |  | HIV-1 | gel | 0%
CC[C@H]1C=CCC[C@@]2(C[C@@H]3CC[C@H]4[C@H](C(=O)OCCCCCCCCCCCCCCCC(=O)N(CCC[NH3+])C[C@@H](O)CC[NH3+])[C@@]5(CCC[C@@H](C)O5)NC(=[N+]34)N2)O1 | Nef | inhibition | 5 µM | NL4-3 |  |  | HIV-1 | ELISA | 89.3%
CC(=O)c1ccc(C)cc1NC(C(N)=O)c1c(Cl)cccc1Cl | Reverse transcriptase | IC50 |  | EHO |  | RT-E219D | HIV-2 | nucleotide incorporation | >1425 µM
CN[C@@H]1[C@H](O[C@H]2[C@H](O[C@H]3[C@H](O)[C@@H](O)[C@H](N=C(N)N)[C@@H](O)[C@@H]3N=C(N)N)O[C@@H](C)[C@]2(O)C=O)O[C@@H](CO)[C@H](O)[C@H]1O | Rev:RRE | inhibition | 100 µM |  |  |  | HIV-1 | gel | 0%
CC(C)CN(C[C@@H](O)[C@H](Cc1ccccc1)NC(=O)OCc1ccccc1)S(=O)(=O)c1cccc2nc(N)sc12 | Protease | IC50 |  |  |  |  | HIV | fluorescence | 1 µM
NC[C@H]1O[C@H](O[C@H]2[C@H](O)[C@@H](O)[C@H](N)C[C@@H]2N)[C@H](N)[C@@H](O)[C@@H]1O | Rev:RRE | IC50 |  |  |  |  | HIV-1 | gel | <100 µM
CC[C@H](C)[C@@H](NC(=O)[C@@H](C[C@H](O)[C@H](CC(C)C)NC(=O)[C@H](Cc1cnc[nH]1)NC(=O)[C@H](Cc1ccccc1)NC(=O)[C@@H]1CCCN1C(=O)[C@@H](N)Cc1cnc[nH]1)C(C)C)C(=O)N[C@@H](Cc1cnc[nH]1)C(=O)O | Protease | Ki |  |  | pH 4.7 |  | HIV-2 | HPLC | 0.035 µM
Nc1ccn([C@H]2CC[C@@H](COP(=O)(O)OP(=O)(O)OP(=O)(O)O)O2)c(=O)n1 | Reverse transcriptase | fold resistance |  |  |  | RT-T215Y | HIV-1 | nucleotide incorporation / radiometric | 2.3
COc1ccccc1-c1noc(=O)n1-c1cccc(C(F)(F)F)c1 | p17 | inhibition | 1 µM |  |  |  | HIV-1 | PCR | 53.5%
NC[C@H]1O[C@H](O[C@H]2[C@H](O)[C@@H](O[C@H]3O[C@H](CO)[C@@H](O)[C@H](N)[C@H]3O)[C@H](N)C[C@@H]2N)[C@H](N)[C@@H](O)[C@@H]1O | Rev:RRE | inhibition | 100 µM |  |  |  | HIV-1 | gel | 100%
Cc1c(O)cccc1C(=O)N[C@@H](Cc1ccccc1)[C@H](O)CN(CC(C)C)S(=O)(=O)c1ccc2nc(N)sc2c1 | Protease | IC50 |  |  |  |  | HIV | fluorescence | 0.002 µM
O=S1(=O)N(Cc2ccc(CO)cc2)[C@H](COc2ccccc2)[C@H](O)[C@@H](O)[C@@H](COc2ccccc2)N1Cc1ccc(CO)cc1 | Protease | fold resistance |  |  |  | PR-G48V V82A I84V L90M | HIV |  | 377
O=c1ccc2cc(O[C@@H]3O[C@H](CO)[C@@H](O)[C@H](O)[C@H]3O)c(O)cc2o1 | gp41 | IC50 |  |  |  |  | HIV-1 | ELISA | >50 µg/mL
O=C(CO)N[C@@H]([C@@H](O)[C@H](O)[C@H](O)CO)[C@@H](O)C(=O)C(=O)O | gp120 | inhibition | 80 µM | MN |  |  | HIV-1 |  | 57.6%
CO[P@](=O)(c1cc(C)cc(/C=C/C#N)c1)c1c(C(N)=O)[nH]c2ccc(Cl)cc12 | Reverse transcriptase | IC50 |  |  |  | L1001/K103N | HIV |  | 0.4 µM
Nc1ccn([C@@H]2CS[C@H](COP(=O)(O)OP(=O)(O)OP(=O)(O)O)O2)c(=O)n1 | Reverse transcriptase | fold resistance |  |  |  | RT-L74V | HIV-1 | nucleotide incorporation / radiometric | 1.62
NCCC(O)C(=O)N[C@H]1C[C@@H](N)[C@H](O[C@H]2O[C@H](CN)[C@@H](O)[C@H](O)[C@H]2N)[C@@H](O[C@@H]2O[C@H](CO)[C@H](O)[C@H]2O)[C@@H]1O | Rev:RRE | inhibition | 100 µM |  |  |  | HIV-1 | gel | 0%
CC[C@H]1C(=O)Nc2ccc(F)cc2N1C(=O)OC(C)C | Reverse transcriptase | IC50 |  |  |  | RT-N137K | HIV | nucleotide incorporation / radiometric | 0.02 µM
Nc1ccn([C@H]2C[C@H](O)[C@@H](COP(=O)(O)OP(=O)(O)OP(=O)(O)O)O2)c(=O)n1 | Reverse transcriptase | fold resistance |  |  |  | RT-M184V | HIV-1 | nucleotide incorporation / radiometric | 0.96
O=C(/C=C/c1ccc(O)c(O)c1)OC[C@H]1O[C@@H](OCCc2ccc(O)c(O)c2)[C@H](O)[C@@H](O)[C@@H]1O | gp41 | IC50 |  |  |  |  | HIV-1 | ELISA | >50 µg/mL
Cc1cc(SC2=C(O)C[C@@](CCc3ccc(O)cc3)(C(C)C)OC2=O)c(C(C)(C)C)cc1N | Protease | inhibition | 1 µM |  |  |  | HIV | HPLC | 6.8%
COC(=O)C(Cc1ccccc1)NC(=O)[C@@H](NC(=O)[C@@H](C[C@H](O)[C@H](CC1CCCCC1)NC(=O)[C@@H](NC(=O)[C@H](Cc1ccccc1)CS(=O)(=O)C(C)(C)C)C(C)C)C(C)C)C(C)C | Reverse transcriptase | IC50 |  | EHO |  | RT-S102L E219D | HIV-2 | nucleotide incorporation | >1553 µM
C=CCOC(=O)C1=C(C)NC2=[N+]3[C@@H](CC[C@@H]13)C[C@@H](CCCCC[C@@H](C)OCc1ccccc1)N2 | Nef | IC50 |  | NL4-3 |  |  | HIV-1 | ELISA | <5 µM
CC(C)CN(C[C@@H](O)[C@H](Cc1ccccc1)NC(=O)OCc1cccnc1)S(=O)(=O)c1ccc2ncsc2c1 | Protease | IC50 |  |  |  |  | HIV | fluorescence | 0.004 µM
CCCCCCC[C@H](O)C[C@@H]1CC[C@H]2C(C(=O)O[C@@H](C)CCCCCCC[C@@H]3C[C@@H]4CC[C@@H]5C[C@H](C)NC(=[N+]54)N3)=C(C)NC(N)=[N+]12 | Nef | inhibition | 5 µM | NL4-3 |  |  | HIV-1 | ELISA | 84.5%
CN[C@H]1C[C@@H]2O[C@](C)([C@H]1OC)n1c3ccccc3c3c4c(c5c6ccccc6n2c5c31)C(=O)NC4 | Tat:TAR/LTR | Ki |  | LAV |  |  | HIV-1 |  | 0.0007 µM
CC(C)=CCOc1cc(NC(=S)c2ccoc2C)ccc1Cl | Reverse transcriptase | IC50 |  |  |  | RT-N137T | HIV | nucleotide incorporation / radiometric | 0.03 µM
CCOCn1c(Cc2ccccc2)c(C(C)C)c(=O)[nH]c1=O | Reverse transcriptase | IC50 |  | ROD |  |  | HIV-2 | nucleotide incorporation | 1441 µM
COc1cc2ccc(=O)oc2c(O)c1O | gp41 | inhibition | 50 µg/mL |  |  |  | HIV-1 | ELISA | 29%
CC(C)CN(C[C@@H](O)[C@H](Cc1ccccc1)NC(=O)OC1CCOC1)S(=O)(=O)c1ccc2nc(N)sc2c1 | Protease | IC50 |  |  |  |  | HIV | fluorescence | 0.002 µM
C=CCOC(=O)C1=C(C)NC(N)=[N+]2[C@H](C[C@@H](O)CCCCCCOCc3ccccc3)CC[C@H]12 | Nef | inhibition | 5 µM | NL4-3 |  |  | HIV-1 | ELISA | 101%
Nc1nc2c(ncn2[C@H]2CC[C@@H](COP(=O)(O)OP(=O)(O)OP(=O)(O)O)O2)c(=O)[nH]1 | Reverse transcriptase | IC50 |  |  |  | RT-N137D | HIV | nucleotide incorporation / radiometric | 0.13 µM
Nc1ncnc2c1ncn2[C@@H]1O[C@H](COP(=O)(O)OP(=O)(O)OP(=O)(O)O)C[C@@H]1F | Reverse transcriptase | fold resistance |  |  |  | RT-A62V V75I F77L F116Y Q151M | HIV-1 | nucleotide incorporation / radiometric | 5.38
NC[C@H]1O[C@H](O[C@H]2[C@H](O)[C@@H](O[C@H]3O[C@H](CO)[C@@H](O)[C@H](N)[C@H]3O)[C@H](N)C[C@@H]2N)[C@H](N)C[C@@H]1O | Rev:RRE | inhibition | 10 µM |  |  |  | HIV-1 | gel | 100%
CNC(=O)[C@@H](NC(=O)[C@H](OCc1ccccc1)[C@H](O)[C@@H](O)[C@@H](OCc1ccccc1)C(=O)N[C@H]1c2ccccc2C[C@H]1O)C(C)C | Protease | Ki |  |  |  | PR-L90M | HIV |  | 0.00045 µM
Cc1ccccc1C(=O)N[C@@H](Cc1ccccc1)[C@H](O)CN(CC(C)C)S(=O)(=O)c1ccc2nc(N)sc2c1 | Protease | IC50 |  |  |  |  | HIV | fluorescence | 0.003 µM
CC(C)[C@H](NC(=O)c1ccc2ccccc2n1)C(=O)N[C@@H](Cc1ccccc1)[C@H](O)CN1CC[C@@H](OCc2ccncc2)C[C@H]1C(=O)NC(C)(C)C | Protease | Ki |  | ROD |  |  | HIV-2 | fluorescence | 0.000134 µM
COc1ccc2c(c1)N(C(=O)OC(C)C)[C@@H](CSC)C(=S)N2 | Reverse transcriptase | fold resistance |  |  |  | RT-D67N K70R T215F K219Q Y181C | HIV | RT activity | 4.5
c1ccc(C2SCc3nc4ccccc4n32)cc1 | Reverse transcriptase | fold resistance |  |  |  | RT-K103N Y181I | HIV |  | >2
O=S1(=O)N(Cc2cccc(-c3cccs3)c2)[C@H](COc2ccccc2)[C@H](O)[C@@H](O)[C@@H](COc2ccccc2)N1Cc1cccc(-c2cccs2)c1 | Protease | fold resistance |  |  |  | PR-I84V | HIV-1 |  | 37.7
COc1cc2ccc(=O)oc2c(O[C@@H]2O[C@H](CO)[C@@H](O)[C@H](O)[C@H]2O)c1O | gp41 | IC50 |  |  |  |  | HIV-1 | ELISA | >50 µg/mL
CC(C)CN(C[C@@H](O)[C@H](Cc1ccccc1)NC(=O)OCc1ccccc1)S(=O)(=O)c1ccc2ncsc2c1 | Protease | IC50 |  |  |  |  | HIV | fluorescence | 0.003 µM

A second listing of 2 rows from above:

{"compound": "Cc1cn([C@H]2CC[C@@H](COP(=O)(O)OP(=O)(O)OP(=O)(O)O)O2)c(=O)[nH]c1=O", "target": "Reverse transcriptase", "endpoint": "fold resistance", "changes": "RT-I135A", "agent": "HIV-1", "method": "nucleotide incorporation / radiometric", "value": "0.8"}
{"compound": "NC[C@H]1O[C@H](O[C@H]2[C@H](O)[C@@H](O[C@H]3O[C@H](CO)[C@@H](O)[C@H](N)[C@H]3O)[C@H](N)C[C@@H]2N)[C@H](N)C[C@@H]1O", "target": "Rev:RRE", "endpoint": "inhibition", "tested at": "10 µM", "agent": "HIV-1", "method": "gel", "value": "100%"}

Neighbouring rows are from separate reports. ICn is the concentration giving n% inhibition. Inhibition is in % at the dose shown (toxicity tests: loss of growth or viability). Blank or dashed fields: not listed here.